Measured values from several laboratories, pooled; numbers as filed in NIAID ChemDB.

All rows: whole-cell or culture tests; agent: HIV-1; cells: MOLT-4; read-out: EC50

Blank or dashed fields: not listed here. Lines come from different laboratories, so protocols vary. ECn: concentration that inhibits the pathogen or its effect by n%.

O=C(N[C@@H](Cc1ccccc1)C(=O)NCC[C@@H](CO)NC(=O)[C@H](Cc1ccccc1)NC(=O)OCc1ccccc1)OCc1ccccc1 ; strain or isolate: IIIB ; read by: p24 ; result: 2.3 µM
CCn1cc(C(=O)O)c(=O)c2cc(F)c(N3CCN(c4ccccc4OC)CC3)c(OC(F)F)c21 ; read by: cytopathic effect ; result: 0.061 µM
Oc1cccc(O)c1O ; strain or isolate: IIIB ; read by: syncytia ; result: 11 µg/mL
CC(C)[C@H](NC(=O)[C@H](Cc1ccccc1)C[C@H](O)[C@H](Cc1ccccc1)NC(=O)[C@H](C)NC(=O)OCc1ccccc1)C(N)=O ; strain or isolate: IIIB ; read by: RT activity ; result: 0.76 µM
Cc1c(O)cccc1C(=O)N[C@@H](CC(C)C)C(=O)N(Cc1ccccc1)N(CO)C(=O)[C@@H]1CCCN1C(=O)OC(C)(C)C ; strain or isolate: IIIB ; read by: p24 ; result: 18.4 µM
CN1C(=O)[C@@H](c2cc(Cl)c(O)c(Cl)c2)NC(=O)[C@@H]2NC(=O)[C@H](c3cc(Cl)c(O)c(Cl)c3)NC(=O)[C@@H](NC(=O)C(=O)c3cc(Cl)c(O)c(Cl)c3)Cc3c[nH]c4cc(ccc34)-c3cc2cc(c3O)Oc2ccc(cc2)C[C@H]1C(=O)N[C@@H](C(=O)O)c1ccc(O)cc1 ; strain or isolate: IIIB ; read by: syncytia ; result: 0.9 µg/mL
Cc1c(O)cccc1C(=O)N[C@@H](CC(C)C)C(=O)N(c1ccccc1)N(CO)C(=O)[C@@H]1CCCN1C(=O)OC(C)(C)C ; strain or isolate: IIIB ; read by: p24 ; result: 28 µM
CN1C(=O)C(c2cc(Cl)c(O)c(Cl)c2)NC(=O)[C@@H]2NC(=O)C(c3cc(Cl)c(O)c(Cl)c3)NC(=O)[C@H](NC(=O)C(=O)c3cc(Cl)c(O)c(Cl)c3)Cc3c[nH]c4c(cccc34)-c3cc2cc(c3O)Oc2ccc(cc2)CC1C(=O)NC(C(=O)O)c1ccc(O)cc1 ; read by: syncytia ; result: 1.1 µM
Cn1cc(C(=O)O)c(=O)c2cc(F)c(N3CC=C(c4ccccc4)CC3)c(C(F)(F)F)c21 ; read by: cytopathic effect / MTT ; result: 0.02 µM
O=C(O)/C=C/c1ccc(O)c(O)c1 ; strain or isolate: IIIB ; read by: syncytia ; result: 7 µg/mL
Cc1cn([C@H]2C[C@H](N=[N+]=[N-])[C@@H](COC(=O)NC(=O)CCCC(=O)O)O2)c(=O)[nH]c1=O ; strain or isolate: LAI ; read by: cytopathic effect ; result: 0.034 µM
CC(C)[C@H](NC(=O)[C@H](C)C[C@H](O)[C@H](Cc1ccccc1)NC(=O)[C@H](C)NC(=O)OCc1ccccc1)C(=O)N[C@H](CO)C(C)C ; strain or isolate: IIIB ; result: 0.88 µM
O=C(O)Cc1cc(O)ccc1O ; strain or isolate: IIIB ; read by: syncytia ; result: 6 µg/mL
Cc1cccc(C)c1OCC(=O)N[C@@H](Cc1ccccc1)[C@H](OC(=O)CCCC(=O)NCC(=O)O)C(=O)N1CSC(C)(C)[C@H]1C(=O)NC(C)(C)C ; strain or isolate: LAI ; read by: cytopathic effect ; result: 3.8 µM
COc1ccc2[nH]c(=O)c(CN(Cc3cccnc3)S(=O)(=O)c3cccc4nsnc34)cc2c1 ; strain or isolate: IIIB ; read by: p24 / ELISA ; result: 0.0179 µM
CN1C(=O)[C@@H](c2cc(Cl)c(O)c(Cl)c2)NC(=O)[C@@H]2NC(=O)[C@H](c3cc(Cl)c(O)c(Cl)c3)NC(=O)[C@@H](NC(=O)C(=O)c3cc(Cl)c(O)c(Cl)c3)Cc3c[nH]c4cc(ccc34)-c3cc2cc(c3O)Oc2ccc(cc2)C[C@H]1C(=O)N[C@@H](C(=O)O)c1ccc(O)cc1 ; strain or isolate: IIIB ; read by: syncytia ; result: 0.5 µM
CC(C)C(=O)c1cnc([C@H](Cc2ccccc2)C[C@H](O)[C@H](Cc2ccccc2)NC(=O)[C@@H](NC(=O)OCc2ccccc2)C(C)C)[nH]1 ; strain or isolate: IIIB ; result: 0.13 µM
Cc1cn([C@H]2C[C@H](N=[N+]=[N-])[C@@H](COC(=O)N3C(=O)CCC3=O)O2)c(=O)[nH]c1=O ; strain or isolate: LAI ; read by: cytopathic effect ; result: 0.013 µM
COC(=O)[C@@H](NC(=O)[C@@H](NC(=O)CC[C@H](O)[C@H](Cc1ccccc1)NC(=O)[C@H](C)NC(=O)[C@H](C)N)C(C)C)C(C)C ; strain or isolate: IIIB ; read by: RT activity ; result: 8 µM
COC(=O)[C@@H](NC(=O)[C@@H](NC(=O)[C@@H](C)NC[C@H](O)[C@H](Cc1ccccc1)NC(=O)[C@H](C)NC(=O)OCc1ccccc1)C(C)C)C(C)C ; strain or isolate: IIIB ; read by: virus yield ; result: 0.1 µM
Cn1cc(C(=O)O)c(=O)c2cc(F)c(N3CC=C(c4ccccc4)CC3)c(C(F)(F)F)c21 ; strain or isolate: IIIB ; read by: ELISA ; result: 74 µM
CCc1c(Sc2ccccc2)n(COCc2ccccc2)c(=O)[nH]c1=O ; strain or isolate: IIIB ; read by: cytopathic effect / MTT ; result: 0.0039 µM
Cc1cc(C)c(S(=O)(=O)OCC2OC3OC4C(CO)OC(OC5C(CO)OC(OC6C(CO)OC(OC7C(CO)OC(OC8C(CO)OC(OC9C(C[n+]%10ccccc%10)OC(OC2C(O)C3O)C(O)C9O)C(O)C8O)C(O)C7O)C(O)C6O)C(O)C5O)C(O)C4O)c(C)c1 ; strain or isolate: LAV-1 ; read by: syncytia ; result: <42 µg/mL
Cn1c2ccccc2c(=O)c2c(O)cccc21 ; strain or isolate: IIIB ; read by: MTT ; result: >14.8 µg/mL
CC(C)CCCCCCCCCCCN(C)OP(=O)(O)N(CC(N)=O)P(=O)(O)OC1C(OC[C@H]2O[C@@H](n3ccc(=O)[nH]c3=O)[C@H](O)[C@@H]2O)=C(CO)C(O)C1O ; strain or isolate: IIIB ; read by: cytopathic effect / MTT ; result: 0.4 µM
O=C(N[C@@H](Cc1ccccc1)C(=O)NCC[C@@H](CO)NC(=O)[C@H](Cc1ccccc1)NC(=O)c1cc2ccccc2[nH]1)c1cc2ccccc2[nH]1 ; strain or isolate: IIIB ; read by: p24 ; result: 3.8 µM
CC(C)(C)NC(=O)[C@@H]1CCCN1C(=O)[C@@H](O)[C@H](Cc1ccccc1)NC(=O)[C@H](CC(N)=O)NC(=O)OCc1ccccc1 ; strain or isolate: C-3 ; read by: p24 ; result: ~10 µM
CC(C)[C@H](NC(=O)[C@H](Cc1ccccc1)C[C@H](O)[C@H](Cc1ccccc1)NC(=O)[C@H](C)NC(=O)OCc1ccccc1)C(N)=O ; strain or isolate: IIIB ; result: 0.85 µM
CC1(C)[C@@H](O[C@H]2O[C@H](C(=O)O)[C@@H](O)[C@H](O)[C@H]2O[C@@H]2O[C@H](C(=O)O)[C@@H](O)[C@H](O)[C@H]2O)CC[C@]2(C)[C@H]3C(=O)C=C4[C@@H]5C[C@@](C)(C(=O)O)CC[C@]5(C)CC[C@@]4(C)[C@]3(C)CC[C@@H]12 ; strain or isolate: IIIB ; read by: virus yield ; conditions: 6 d ; result: <1200 µM
COC(=O)[C@@H](NC(=O)[C@@H](NC(=O)[C@H](C)C[C@H](O)[C@H](Cc1ccccc1)NC(=O)[C@H](C)NC(=O)[C@H](C)NC(=O)OCc1ccccc1)C(C)C)C(C)C ; strain or isolate: IIIB ; read by: RT activity ; result: 0.85 µM
Cc1ccccc1CNC(=O)[C@H]1N(C(=O)[C@@H](OC(=O)CCCC(=O)NCCC(=O)OC[C@H]2O[C@@H](n3cc(C)c(=O)[nH]c3=O)C[C@@H]2N=[N+]=[N-])[C@H](Cc2ccccc2)NC(=O)COc2c(C)cccc2C)CSC1(C)C ; strain or isolate: LAI ; read by: cytopathic effect ; result: 0.03 µM
O=C(O)c1cn(C2CC2)c2c(OC(F)F)c(N3CCN(c4ccc(Cl)cc4)CC3)c(F)cc2c1=O ; strain or isolate: IIIB ; read by: p24 ; result: 0.964 µM
COC(=O)[C@@H](NC(=O)[C@@H](NC(=O)CNC[C@H](O)[C@H](Cc1ccccc1)NC(=O)[C@H](C)NC(=O)OCc1ccccc1)C(C)C)C(C)C ; strain or isolate: IIIB ; read by: virus yield ; result: 3 µM
O=S(=O)(c1cccc2cnccc12)N1CCNCC1 ; strain or isolate: IIIB ; read by: cytopathic effect / MTT ; result: >8.4 µg/mL
CCn1cc(C(=O)O)c(=O)c2cc(F)c(N3CCN(c4ccccc4OC)CC3)c(OC(F)F)c21 ; read by: cytopathic effect / MTT ; result: 0.11 µM
O=C(O)CCc1ccc(O)c(O)c1 ; strain or isolate: IIIB ; read by: syncytia ; result: 14 µg/mL
O=S(=O)(c1cccc2cnccc12)N1CCNCC1 ; strain or isolate: IIIB ; read by: cytopathic effect / MTT ; result: >8.4 µg/mL
Cc1c(O)cccc1C(=O)N[C@@H](CC(C)C)C(=O)N(Cc1ccccc1)N(CCO)C(=O)[C@@H]1CCCN1C(=O)OC(C)(C)C ; strain or isolate: IIIB ; read by: p24 ; result: 0.3 µM
O=C(O)Cc1ccc(O)c(O)c1 ; strain or isolate: IIIB ; read by: syncytia ; result: 5 µg/mL

The last 3 rows once more:

compound,strain or isolate,read by,conditions,result
O=S(=O)(c1cccc2cnccc12)N1CCNCC1,IIIB,cytopathic effect / MTT,,>8.4 µg/mL
Cc1c(O)cccc1C(=O)N[C@@H](CC(C)C)C(=O)N(Cc1ccccc1)N(CCO)C(=O)[C@@H]1CCCN1C(=O)OC(C)(C)C,IIIB,p24,,0.3 µM
O=C(O)Cc1ccc(O)c(O)c1,IIIB,syncytia,,5 µg/mL